Laboratory results from patent publication US8884011B2, “Nucleotide analogues as precursor molecules for antivirals” (Centre National de la Recherche Scientifique-CNRS, priority 2006, dated 2014).

Columns and labels:
HIV-1-LAI = assay: Anti-HIV test in CMSP cultures infected by HIV-1-LAI (RT activity in supernatants); assay type: cell-based
HIV-2 (ROD) = assay: Anti-HIV test in CEM cell cultures, syncytium formation, HIV-2 (ROD); conditions: CEM cells
HIV-1 (IIIB) = assay: Anti-HIV test in CEM cell cultures, syncytium formation, HIV-1 (IIIB); conditions: CEM cells
Protocol: Briefly, CEM cells (4.5×10^5 cells per ml) were suspended in fresh culture medium and infected with HIV-1 at 100 CCID50 per ml of cell suspension. Then, 100 μl of the infected cell suspension were transferred to microplate wells, mixed with 100 μl of the appropriate dilutions of the test compounds, and further incubated at 37° C. After 4 to 5 days, giant cell formation was recorded microscopically in the CEM cell cultures.

SMILES | IT (selectivity index, TC50/EC50) (HIV-1-LAI) | SI HIV-2 (TC50/EC50) (HIV-2 (ROD)) | SI HIV-1 (TC50/EC50) (HIV-1 (IIIB))
C[C@H](Cn1cnc2c(N)ncnc21)OCP(O)(O)=S [Compound 11, (R)-9-[2-(thiophosphonomethoxy)propyl]adenine] | >63 | 19 | 15
Nc1ncnc2c1ncn2CCOCP(O)(O)=S [Compound 6, 9-[2-(thiophosphonomethoxy)ethyl]adenine] | >6 | 31 | 27
